In US20230265217A1 (TWIST BIOSCIENCE, published 2023) one finds Kd, koff and kon data, which are given here for 2 molecules.

Assay [1] has as its target T1, SARS-CoV-2 S1 [S1N-C52H4] (SARS-CoV-2).
T1 construct: domain: S1
As to the kind of experiment: Carterra SPR.

Assay [2] concerns the target SARS-CoV-2 S protein trimer [SPN-C52H7] (SARS-CoV-2). As to the kind of experiment: Carterra SPR.

B1: Bispecific Antibody 1 (bispecific antibody)
chain: EVQLVESGGGLVQPGGSLRLSCAASGSTFSINAMGWFRQAPGKEREFVAGITSSGGYTNYADSVKGRFTISADNSKNTAYLQMNSLKPEDTAVYYCAADGVPEYSDYASGPVWGQGTLVTVSSGGGGSGGGGSASEVQLVESGGGLVQPGGSLRLSCAASGFTFSPSWMGWFRQAPGKEREFVATINEYGGRNYADSVKGRFTISADNSKNTAYLQMNSLKPEDTAVYYCARVDRDFDYWGQGTLVTVSSGGGGS[gap - human IgG1 Fc with C220S (EU numbers)]
notes: also called Bi-Ab1; Bi-Ab1_ExpiCHO
Consider B1, for which, in assay [1], the Kd was 0.181 nM, the koff is 5.39e-05 s⁻¹ and the on-rate constant (kon) was 297000 M⁻¹ s⁻¹. Further, the kon in assay [2] came to 483000 M⁻¹ s⁻¹.

B2: Bispecific Antibody 2 (bispecific antibody)
chain: EVQLVESGGGLVQPGGSLRLSCAASGFTFSPSWMGWFRQAPGKEREFVATINEYGGRNYADSVKGRFTISADNSKNTAYLQMNSLKPEDTAVYYCARVDRDFDYWGQGTLVTVSSGGGGS[gap - human IgG1 Fc with C220S (EU numbers)]GGGSGGGGSASEVQLVESGGGLVQPGGSLRLSCAASGSTFSINAMGWFRQAPGKEREFVAGITSSGGYTNYADSVKGRFTISADNSKNTAYLQMNSLKPEDTAVYYCAADGVPEYSDYASGPVWGQGTLVTVSS
notes: also called Bi-Ab2; Bi-Ab2_ExpiCHO
In assay [1], B2 yielded a Kd of 1.24 nM, a koff of 0.000362 s⁻¹ and a kon of 293000 M⁻¹ s⁻¹. The molecule further gave a kon in assay [2] of 285000 M⁻¹ s⁻¹.
